# Test results: PubChem BioAssay AID624483 (NMMLSC, 2012)
# This is a selection; strong and weak results do not stand in their true shares. Calls of active or inactive are those of the source. No stated cut-off is given here; in the data, active means fluorescence intensity above about 16000; inconclusive means no clear call, values can overlap the other calls; inactive means below that.
# Test: compound fluorescence in toxin protease inhibitor counterscreen, primary screen, artefact control for toxin protease inhibitor project, biochemical, multiplex microsphere, HTS (AID 624483); further: test concentration not given here
# Settings: compound autofluorescence counterscreen, microsphere flow cytometry; active compounds read high
row,SMILES,fluorescence intensity
1,COc1ccc(C2=NCC(CBr)S2)cc1 (configuration not stated),inactive: 4420
2,CCN(CC)CC(O)COC(=O)C(O)(c1ccccc1)C1CCCCC1 (configuration not stated),inactive: 3700
3,CC1CCN(C(=O)Oc2c(Cl)cc(Cl)c3cccnc23)CC1,inactive: 3200
4,c1cc(-c2nn[nH]n2)ccc1-c1nn[nH]n1,inactive: 3830
5,CN(C)C(=O)OCCc1n(C)cc[n+]1C,inactive: 2260
6,CC(C)c1nc(Nc2ccccc2)n(P(=O)(N(C)C)N(C)C)n1,inactive: 2800
7,CN(C)C(=O)c1c([N+](=O)[O-])cc([N+](=O)[O-])cc1[N+](=O)[O-],inactive: 5200
8,CC(C)=N/N=C(\N)N[N+](=O)[O-],inactive: 2640
9,CP(=O)(Nc1ccc(Cl)cc1)Oc1ccc(F)cc1 (configuration not stated),inactive: 12700
10,CCN(/C(=N/P(=O)(N1CCOCC1)N1CCOCC1)N1CCOCC1)c1ccc(OC)cc1,inactive: 2380
11,C[N+]1=C2C=CC=CC=C2SC12C([N+](=O)[O-])=CC([N+](=O)[O-])=C[C-]2[N+](=O)[O-] (configuration not stated),inactive: 3240
12,COc1ccccc1OP(C)(=O)Nc1ccccc1Br (configuration not stated),inactive: 4250
13,CC(C)(C)c1ccc(OP(C)(=O)O)cc1,active: 22200
14,Nc1ccc([As](=O)(O)c2ccc(N)cc2)cc1,inactive: 3380
15,CN1CCCC(OC(=O)C(c2ccccc2)c2ccccc2)C1 (configuration not stated),inactive: 4300
16,Clc1ccc(Cl)c(NC2=NCC(CBr)S2)c1 (configuration not stated),inactive: 4090
17,CN(C)CCOC(=O)C(O)(c1ccccc1)C1CCCC1 (configuration not stated),inactive: 10400
18,Cc1ccc(OP(=O)(Nc2nccs2)Oc2ccc(C)cc2)cc1,inactive: 3400
19,COc1ccccc1OP(=O)(Nc1ccc(C)cn1)Oc1ccccc1OC,inactive: 2050
20,COc1ccc(OP(C)(=O)Nc2ccccn2)cc1 (configuration not stated),inactive: 9160
21,Cc1ccc(N/C(=N/P(=O)(N2CCOCC2)N2CCOCC2)N2CCOCC2)cc1,inactive: 4210
22,CN(C(=O)Cc1ccc(Cl)c(Cl)c1)[C@H]1CCCC[C@H]1N1CCCC1,inactive: 6450
23,COc1ccccc1OP(C)(=O)Nc1ccc(Br)cc1 (configuration not stated),inactive: 4710
24,NC(=O)c1cc([N+](=O)[O-])cc([N+](=O)[O-])c1N,inactive: 4230
25,CCc1ccc(OP(C)(=O)O)cc1,inactive: 2380
26,O=[N+]([O-])C1C(O)C(O)C([N+](=O)[O-])C(O)C1O (configuration not stated),inactive: 6380

row,SMILES,fluorescence intensity
1,COc1ccccc1OP(C)(=O)Nc1ccc(C)cc1C (configuration not stated),inactive: 6630
2,CP(=O)(Nc1ccccn1)Oc1ccccc1 (configuration not stated),inactive: 3560
3,O=C(NC(Sc1ccncn1)C(Cl)(Cl)Cl)c1ccccc1 (configuration not stated),inactive: 10800
4,Oc1ccccc1CNc1ccccn1,inactive: 4410
5,Cc1c(NP(C)(=O)Oc2ccc(C(C)C)cc2)c(=O)n(-c2ccccc2)n1C (configuration not stated),inactive: 4260
6,Nc1cc(N)c2nonc2c1[N+](=O)[O-],inactive: 4480
7,CC(C)CC(=O)NC(Sc1ccc(Cl)cc1)C(Cl)(Cl)Cl (configuration not stated),inactive: 8060
8,O=[N+]([O-])c1cc([N+](=O)[O-])c(Nc2ccccn2)c([N+](=O)[O-])c1,inactive: 4250
9,COc1ccc(OP(C)(=O)Nc2ccccc2Br)cc1 (configuration not stated),inactive: 2070
10,COc1ccccc1OP(C)(=O)Nc1ccc(C)c(C)c1 (configuration not stated),inactive: 3320
11,Cc1ccc(NP(=O)(Oc2ccccc2F)Oc2ccccc2F)nc1,inactive: 6090
12,CN(C(=O)Cc1ccc(Cl)c(Cl)c1)[C@H]1CCCC[C@@H]1N1CCCC1,inactive: 6420
13,Cc1cc(SC(NC(=O)c2ccc(F)cc2)C(Cl)(Cl)Cl)ncn1 (configuration not stated),inactive: 2340
14,CCOP(=O)(Nc1ccccc1)OCC,inactive: 3630
15,O=P(Nc1nc2ccc(Cl)cc2s1)(c1ccccc1)c1ccccc1,inactive: 6080
16,Cc1cc(C)cc(OP(C)(=O)Nc2cccc(C(F)(F)F)c2)c1 (configuration not stated),inactive: 3560
17,CN(C)P(=O)(N(C)C)n1c(Nc2ccccc2)nnc1-c1ccccc1,inactive: 3570
18,O=C1C(O)=C([N+](=O)[O-])C(=O)C(O)=C1[N+](=O)[O-],inactive: 3560
19,CCCC1OP(N)(=O)OCC1CC (configuration not stated),inactive: 3890
20,CC(=O)Nc1ccc([As](=O)(O)O)cc1,inactive: 3950
21,O=C(O)c1ccccc1[As](=O)(O)O,inactive: 3370
22,CCCCCCCCCCCCCCCC1C[N+](C)(C)CCOP(C)(=O)O1 (configuration not stated),inactive: 3060
23,CP(=O)(Nc1ccc(Cl)cc1Cl)Oc1ccccc1 (configuration not stated),inactive: 3520
24,CP(=O)(OCCOc1ccccc1)OCCOc1ccccc1,inactive: 3420
25,Nc1cccc2ccc([As](=O)(O)O)cc12,inactive: 3830
26,CCN(N=Nc1nonc1N)c1nonc1N,inactive: 9520
